Measured values from several laboratories, pooled; numbers as filed in NIAID ChemDB.

All rows: tests in culture; agent: HIV-1; measure: EC90

An empty or dashed field is not shown.

SMILES | strain | mutations | cell line | read by | result
CC(C)CN(CC(O)Cn1ccnc1S(=O)(=O)c1ccccc1)S(=O)(=O)c1ccccc1 | IIIB | - | CEM | p24 | 1 µM
O=C1Nc2ccc(F)c(F)c2C(C#Cc2cccs2)(C(F)(F)F)O1 | - | RT-K103N | - | - | 0.2797 µM
O=C1Nc2ccc(Cl)cc2[C@@](/C=C/C2CC2)(C(F)(F)F)N1 | - | RT-V106A | - | - | <0.012 µM
O=C1Nc2ccc(Cl)cc2C(C#Cc2cncs2)(C(F)(F)F)O1 | - | RT-K103N | - | - | 0.1062 µM
Cn1cc(C(=O)N2CCC(c3cc(CCOc4ccccc4Cl)[nH]n3)C2)cn1 | BaL | - | TZM-bl | luciferase | 18.65 µM
CCCOCCCNC(=O)[C@@H](NC(=O)[C@H](Cc1ccc(OC)c(OC)c1OC)C[C@H](O)[C@H](Cc1ccccc1)NC(=O)OC(C)(C)C)C(C)C | MN | - | MT-2 | RT activity | 0.03 µM
COC(=O)[C@H](C)NP(=O)(OC[C@@H]1OC[C@H](n2cc(C)c(=O)[nH]c2=O)O1)Oc1ccc(Cl)cc1 | LAI | RT-M184V | PBMC | RT activity | 0.62 µM
Cc1cc(C)cc(S(=O)(=O)c2c(C(=O)NCC(=O)NC(C)C(=O)NN)[nH]c3ccc(Cl)cc23)c1 | IIIB | - | C8166 | p24 | 0.12 µM
C[C@@]1(O)[C@H](O)[C@@H](CO)O[C@H]1n1cnc2c(N)nc(N=[N+]=[N-])nc21 | LAI | - | - | ELISA | >100 µM
CCCCC#CC1(C(F)(F)F)OC(=O)Nc2ccc(N)cc21 | RF | - | MT-2 | - | 0.03353 µM
COCCNC(=O)[C@@H](NC(=O)[C@H](Cc1ccc(OC)cc1)C[C@H](O)[C@H](Cc1ccccc1)NC(=O)OC(C)(C)C)C(C)C | MN | - | MT-2 | RT activity | 0.03 µM
CCCOP(=O)(OCCC)OC[C@@H]1CC[C@H](n2cnc3c(N)nccc32)O1 | IIIB | - | MT-4 | syncytia | 20 µM
CC(C)CN(C[C@@H](O)[C@H](Cc1ccccc1)NC(=O)[C@H](CC(N)=O)NC(=O)c1ccc2ccccc2n1)S(=O)(=O)c1cc(S(=O)(=O)c2ccccc2)cs1 | IIIB | - | CEM | p24 | ≤0.1 µM
CCCCOP(=O)(OCCCC)OC[C@@H]1CC[C@H](n2cnc3c(N)nccc32)O1 | IIIB | - | MT-4 | syncytia | 12 µM
C[C@@H]1CCO[C@H]2Cn3cc(C(=O)NCc4ccc(F)cc4F)c(=O)c(O)c3C(=O)N12 | IIIB | - | H9 | luminescence | 0.0024 µM
COc1ccc(C[C@H](C[C@H](O)[C@H](Cc2ccccc2)NC(=O)OC(C)(C)C)C(=O)N[C@H](C(=O)NCCN(C)C)C(C)C)cc1OC | MN | - | MT-2 | RT activity | 1 µM
N[C@@H](CCC(=O)O)C(=O)N[C@@H](CCC(=O)O)C(=O)N[C@@H](CCC(=O)O)C(=O)O | MN | - | CEM/MOLT-4 | syncytia | >100 µg/mL
O=C1Nc2ccc(F)c(F)c2C(C#Cc2ccccn2)(C(F)(F)F)O1 | - | RT-K103N | - | - | 0.193 µM
COc1ccc(S(=O)(=O)N(CC2CCCC2)C[C@@H](O)CN(CCC2CCCCC2)C(=O)O[C@H]2CCOC2)cc1 | IIIB | - | CEM | p24 | 0.1 µM
COc1ccnc2[nH]cc(C(=O)C(=O)N3C4CC3CN(C(=O)c3ccccc3)C4)c12 | QH0692 | - | TZM-bl | luciferase | >>250 µM
Cc1cn([C@H]2C=C[C@@H](CO)O2)c(=O)[nH]c1=O | XM-T69SSS | RT-T69SSS L210W T215Y | MT-4 | p24 | 2.7 µM
C[C@@]1(O)[C@H](O)[C@@H](CO)O[C@H]1n1cnc2c(N)nc(NN)nc21 | LAI | - | - | ELISA | >100 µM
O=C1Nc2ccc(Cl)cc2C(C#Cc2ccoc2)(C(F)(F)F)O1 | - | RT-K103N | - | - | 0.1522 µM
CCCCCCCCCCCCCCCCCCOCCOP(=O)(O)OC[C@@H]1OC[C@H](n2cc(C)c(=O)[nH]c2=O)O1 | LAI | RT-M184V | PBMC | RT activity | 3.6 µM
O=C1Nc2ccc(F)c(F)c2C(C#Cc2ccco2)(C(F)(F)F)O1 | - | RT-K103N | - | - | 0.0593 µM
COCCNC(=O)[C@@H](NC(=O)[C@H](Cc1ccc(OC)c(OC)c1OC)C[C@H](O)[C@H](Cc1ccccc1)NC(=O)OC(C)(C)C)C(C)C | MN | - | MT-2 | RT activity | 0.03 µM
O=C1Nc2ccc(Cl)cc2C(C#Cc2ccsc2)(C(F)(F)F)O1 | - | RT-K103N | - | - | 0.3219 µM
COC(=O)[C@H](C)NP(=O)(OC[C@@H]1OC[C@H](n2cc(C)c(=O)[nH]c2=O)O1)Oc1ccccc1 | LAI | RT-M184V | PBMC | RT activity | 1.2 µM
O=C(C1CCCCC1)N1CCC(c2cc(CCOc3cccc(C(F)(F)F)c3)[nH]n2)C1 | BaL | - | TZM-bl | luciferase | 18.2 µM
O=C1Nc2ccc(Cl)cc2C(C#Cc2ccncc2)(C(F)(F)F)O1 | - | RT-K103N | - | - | 0.1446 µM
C[C@@]1(O)[C@H](O)[C@@H](CO)O[C@H]1n1cnc2c(N)n[nH]c(=O)c21 | LAI | - | - | ELISA | >100 µM
COc1ccc(C[C@H](C[C@H](O)[C@H](Cc2ccccc2)NC(=O)OC(C)(C)C)C(=O)N[C@H](C(=O)N[C@@H](Cc2ccccc2)C(=O)N2CCOCC2)C(C)C)c(OC)c1 | MN | - | MT-2 | RT activity | 0.03 µM
COc1ccc(S(=O)(=O)N(CC(C)C)C[C@@H](O)CCN(CC2CCCC2)S(=O)(=O)c2ccc(O)cc2)cc1 | IIIB | - | CEM | p24 | 1 µM
COC(=O)[C@H](C)NP(=O)(OC[C@@H]1OC[C@H](n2cc(C)c(=O)[nH]c2=O)O1)Oc1ccc(CC(C)(C)C)cc1 | LAI | RT-M184V | PBMC | RT activity | 4.7 µM
Nc1nc2c(ncn2[C@H]2CC[C@@H](CO)O2)c(=O)[nH]1 | LAI | - | PBL(PHA STIM.) + PBL | p24 | <2.5 µM
COc1ccc(C[C@H](C[C@H](O)[C@H](Cc2ccccc2)NC(=O)OC(C)(C)C)C(=O)N[C@H](C(=O)N[C@@H](Cc2ccccc2)C(=O)N2CCOCC2)C(C)C)cc1 | MN | - | MT-2 | RT activity | 0.03 µM
COC(=O)[C@H](C)NP(=O)(OC[C@@H]1OC[C@H](n2cc(C)c(=O)[nH]c2=O)O1)Oc1ccc(OC)cc1 | LAI | RT-M184V | PBMC | RT activity | 2.6 µM
Cc1cc(C)cc(S(=O)(=O)c2c(C(=O)/C=C/C(N)=O)[nH]c3ccc(Cl)cc23)c1 | - | RT-K103R | C8166 | cytopathic effect / MTT | >100 µM
C[C@@]1(O)[C@H](O)[C@@H](CO)O[C@H]1n1cnc2c(=N)n(N)[nH]c(=O)c21 | LAI | - | - | ELISA | >100 µM
Cc1ccc(Sc2c([N+](=O)[O-])ncn2CC2=CC(=O)C(=O)CN2C)cc1 | IIIB | - | MT-4 | MTT | >29.8 µM
O=C1Nc2ccc(F)c(F)c2[C@@](C#CC2CC2)(C(F)(F)F)N1 | - | RT-Y181C | - | - | <0.012 µM
COc1ccc(Nc2c([N+](=O)[O-])ncn2CC2=CC(=O)C(=O)CN2C)cc1 | IIIB | - | MT-4 | MTT | >250 µM
CC(C)[C@H](NC(=O)[C@H](Cc1ccc2c(c1)OCO2)C[C@H](O)[C@H](Cc1ccccc1)NC(=O)OC(C)(C)C)C(=O)N[C@@H](Cc1ccccc1)C(=O)N1CCOCC1 | MN | - | MT-2 | RT activity | 0.01 µM
Cc1cn([C@H]2CO[C@@H](COP(=O)(N[C@@H](C)C(=O)OCc3ccccc3)Oc3ccc(Br)cc3)O2)c(=O)[nH]c1=O | LAI | RT-M184V | PBMC | RT activity | 8.9 µM
CC(=O)Nc1ccc(S(=O)(=O)N(CC(C)C)C[C@@H](O)[C@H](Cc2ccccc2)NC(=O)[C@H](CC(N)=O)NC(=O)c2ccc3ccccc3n2)cc1F | IIIB | - | CEM | p24 | ≤0.1 µM
CCCC#CC1(C(F)(F)F)OC(=O)Nc2cccc(F)c21 | RF | - | MT-2 | - | 0.00418 µM
COc1ccnc2[nH]cc(C(=O)C(=O)N3CCN(C(=O)c4ccccc4)C[C@H]3C)c12 | QH0692 | - | TZM-bl | luciferase | 2.1 µM
Cc1cc(C)cc(S(=O)(=O)c2c(C(=O)NCC(=O)NN)[nH]c3ccc(Cl)cc23)c1 | IIIB | - | C8166 | p24 | 0.03 µM
CCOC(=O)[C@H](C)NP(=O)(OC[C@H]1O[C@@H](n2cnc3c(C)nc(N)nc32)[C@](C)(O)[C@@H]1O)Oc1ccccc1 | LAI | - | - | ELISA | >100 µM
Cc1cc(C)cc(S(=O)(=O)c2c(C(=O)/C=C/C(N)=O)[nH]c3ccc(Cl)cc23)c1 | IIIB(K-103R) | RT-K103R | C8166 | p24 | >100 µM
CN1CC(=O)C(=O)C=C1Cn1cnc([N+](=O)[O-])c1Nc1cccc(Cl)c1 | IIIB | - | MT-4 | MTT | >5.5 µM
Cc1cc(C)cc(S(=O)(=O)c2c(C(=O)NNCCO)[nH]c3ccc(Cl)cc23)c1 | EFV-resistant (RT K103R V179D P225H) | RT-K103R V179D P225H | C8166 | p24 | 0.2 µM
COc1cccc(C[C@H](C[C@H](O)[C@H](Cc2ccccc2)NC(=O)OC(C)(C)C)C(=O)N[C@H](C(=O)N[C@@H](Cc2ccccc2)C(=O)N2CCOCC2)C(C)C)c1 | MN | - | MT-2 | RT activity | 0.03 µM
Cc1nnc(C(=O)NC(C)(C)c2nc(C(=O)NCc3ccc(F)cc3)c(O)c(=O)n2C)o1 | LAI | - | HEK293T | p24 / ELISA | 0.002 µM
Nc1nc(NC2CC2)c2ncn([C@H]3C=C[C@@H](CO)C3)c2n1 | XM-AZT-resistant | RT-M41L D67N K70R T215Y K219Q | MT-4 | p24 | 4.2 µM
O=C1Nc2ccc(Cl)cc2C(C#Cc2ccccn2)(C(F)(F)F)O1 | - | RT-K103N | - | - | 0.064 µM
CC(C)CN(C[C@@H](O)[C@H](Cc1ccccc1)NC(=O)[C@H](CC(N)=O)NC(=O)c1ccc2ccccc2n1)S(=O)(=O)c1ccc(-c2ccccn2)s1 | IIIB | - | CEM | p24 | ≤0.1 µM
CN1CC(=O)C(=O)C=C1Cn1cnc([N+](=O)[O-])c1Nc1ccc(C#N)cc1 | IIIB | - | MT-4 | MTT | >250 µM
COC(=O)[C@H](NP(=O)(OC[C@@H]1OC[C@H](n2cc(C)c(=O)[nH]c2=O)O1)Oc1ccccc1)C(C)C | LAI | RT-M184V | PBMC | RT activity | 82.8 µM
CCCC#CC1(C(F)(F)F)OC(=O)Nc2ccc(N)cc21 | RF | - | MT-2 | - | 0.04574 µM
Cc1cc(C)cc(S(=O)(=O)c2c(C(=O)NC(C)C(N)=O)[nH]c3ccc(Cl)cc23)c1 | IIIB | - | C8166 | p24 | 0.004 µM
CNc1ncnc2c1ncn2[C@H]1CC[C@@H](CO)O1 | GB8 | - | JM | p24 | 20 µM
COC(=O)CNP(=O)(OC[C@@H]1OC[C@H](n2cc(C)c(=O)[nH]c2=O)O1)Oc1ccccc1 | LAI | RT-M184V | PBMC | RT activity | 14.2 µM
Cc1nc(N)nc2c1ncn2[C@@H]1O[C@H](CO)[C@@H](O)[C@@]1(C)O | LAI | - | - | ELISA | >100 µM
COc1ccccc1C[C@H](C[C@H](O)[C@H](Cc1ccccc1)NC(=O)OC(C)(C)C)C(=O)N[C@H](C(=O)NCCN(C)C)C(C)C | MN | - | MT-2 | RT activity | 3 µM
O=C(c1ccccc1)N(CCc1ccccc1)C[C@H](O)CN(CC1CCCC1)S(=O)(=O)Cc1ncc[nH]1 | IIIB | - | CEM | p24 | 1 µM
Nc1ncnc2c1ncn2[C@@H]1O[C@H](CO)[C@H](O)[C@H]1O | - | - | C8166 | syncytia | >5 µM

Neighbouring rows are from separate reports. ECn: concentration that inhibits the pathogen or its effect by n%.